Measured values from several laboratories, pooled; numbers as filed in NIAID ChemDB.

Shared fields: growth or infection tests; agent: Enterococcus faecalis; endpoint: MIC

Rows are shuffled and stem from different studies. Blank or dashed fields: not listed here.

| smiles | strain or isolate | result |
|---|---|---|
| O=C(Nc1cc(C(F)(F)F)cc(C(F)(F)F)c1)NN1CCOCC1 | STD44 | >300 µM |
| COc1ccc(-c2ccc(C3=CC(CNC(C)=O)OC3=O)cc2)ccc1=O | UC9217 | 1 µg/mL |
| COc1c(N2CC[C@@H]([C@H](C)NCC3=C(C(=O)O)N4C(=O)[C@@H](NC(=O)COc5ccccc5)C4SC3)C2)c(F)cc2c(=O)c(C(=O)O)cn(C3CC3)c12 | - | 24 µg/mL |
| C=CC(=O)NC[C@H]1CN(c2ccc(C3CCS(=O)(=O)CC3)c(F)c2)C(=O)O1 | UC9217 | 1 µg/mL |
| CC(=O)NC[C@H]1CN(c2ccc(-c3ccsc3)c(F)c2)C(=O)O1 | UC9217 | 0.5 µg/mL |
| CCC(=O)NC[C@H]1CN(c2ccc(C3CCS(=O)(=O)CC3)c(F)c2)C(=O)O1 | UC9217 | 2 µg/mL |
| O=C(O)NC[C@H]1CC(c2ccc(-n3ccnc3)c(F)c2)=NO1 | UC9217 | 4 µg/mL |
| O=C(NNC(=O)Nc1ccccc1C(F)(F)F)Nc1cc(C(F)(F)F)cc(C(F)(F)F)c1 | STD44 | >300 µM |
| COc1ccc(-c2ccc(N3CC(CNC(C)=O)CC3=O)cc2)ccc1=O | UC9217 | >64 µg/mL |
| O=C(CC(=O)Nc1cccc(C(F)(F)F)c1)Nc1cccc(C(F)(F)F)c1 | STD44 | >300 µM |
| CC(=O)NC[C@H]1CN(c2ccc(-n3cnc(C=CC#N)c3)c(F)c2)C(=O)O1 | - | 0.25 µg/mL |
| CC(=O)NC[C@H]1CN(c2ccc(-c3cc(C#N)cs3)c(F)c2)C(=O)O1 | UC9217 | ≤0.5 µg/mL |
| O=C(Nc1cccc(C2=NCCN2)c1)Nc1cccc(C(F)(F)F)c1 | STD44 | 75 µM |
| CC(=O)NC[C@H]1CN(c2ccc(-c3ccn(CC#N)n3)c(F)c2)C(=O)O1 | UC9217 | 4 µg/mL |
| O=C(NNC(=O)NC1CCCCC1)Nc1cc(C(F)(F)F)cc(C(F)(F)F)c1 | STD44 | 200 µM |